Measured values from several laboratories, pooled; numbers as filed in NIAID ChemDB.

MIC bound comes from a single tested concentration. An empty or dashed field is not shown. ICn is the concentration giving n% inhibition. Conditions beyond the fields shown may differ between rows. Inhibition is in % at the dose shown (toxicity tests: loss of growth or viability).

compound,kind,organism,strain or isolate,protein,method,endpoint,tested at,value
Oc1ccc(O)c(Cl)c1,culture,Mycobacterium tuberculosis,H37Rv,-,-,MIC,-,100 µg/mL
Nc1nc(N)c2nc3c(nc2n1)CCCCCC3,culture,Mycobacterium tuberculosis,H37Rv,-,BACTEC,MIC bound,-,>12.5 µg/mL
CCOc1ccc(-c2cncc(N3CCN(c4ccc(C(C)=O)cc4)CC3)n2)cc1,target,Cytomegalovirus,-,UL97 kinase,-,inhibition,10 µM,>15%
Fc1ccc(N2CCCCC2)c(NC(=S)c2ccncc2)c1,host protein,-,-,MAP2K7,kinase activity,inhibition,10 µM,10.8%
COc1ccc(OC)c(-c2cncc(N3CCN(c4ccc(OC)c(OC)c4)CC3)n2)c1,target,Cytomegalovirus,-,UL97 kinase,-,IC50,-,<100 µM
O=C(/C=C/c1ccc([N+](=O)[O-])o1)N1CCN(Cc2ccccc2)CC1,culture,Mycobacterium tuberculosis,H37Rv,-,BACTEC,inhibition,12.5 µg/mL,100%
COc1ccc(N2CCN(c3cncc(-c4cccc5ccccc45)n3)CC2)cc1OC,target,Cytomegalovirus,-,UL97 kinase,-,IC50,-,<100 µM
O=C(c1ccccc1)c1cc(Cl)ccc1Cl,culture,Mycobacterium tuberculosis,H37Rv,-,-,MIC,-,>100 µg/mL
COc1ccc2c(c1)c(CC(N)=O)c(C)n2Cc1ccccc1,culture,Mycobacterium tuberculosis,H37Rv,-,resazurin,MIC bound,-,>6.25 µg/mL
COc1ccc(-c2cncc(N3CCN(c4ccc(C)cc4C)CC3)n2)cc1OC,target,Cytomegalovirus,-,UL97 kinase,-,inhibition,10 µM,>15%
Oc1ccc(C=Nc2ccc(N=Nc3ccccc3)cc2)c(O)c1,culture,Mycobacterium tuberculosis,H37Rv,-,-,MIC,-,>100 µg/mL
C=CCn1c(=O)c(C(=O)Nc2nc(C34CC5CC(CC(C5)C3)C4)cs2)c(O)c2ccccc21,culture,Mycobacterium tuberculosis,H37Rv,-,resazurin,inhibition,6.25 µg/mL,93%
Fc1ccccc1N1CCN(c2cncc(-c3cccc4ccccc34)n2)CC1,target,Cytomegalovirus,-,UL97 kinase,-,inhibition,10 µM,>15%
O=c1oc2ccccc2c(O)c1C=NC(=S)c1ccncc1,culture,Mycobacterium tuberculosis,H37Rv,-,resazurin,inhibition,6.25 µg/mL,-15%
CC(C)OC(=O)CC(C(=O)OC(C)C)N1CCN(C(CC(=O)OC(C)C)C(=O)OC(C)C)CC1,culture,Mycobacterium tuberculosis,H37Rv,-,-,MIC,-,>100 µg/mL
OCc1ccc(-c2cncc(N3CCN(c4ccncc4)CC3)n2)cc1,target,Cytomegalovirus,-,UL97 kinase,-,IC50,-,<10 µM
O=S(=O)(O)c1ccc2ccc(O)cc2c1,culture,Mycobacterium tuberculosis,H37Rv,-,-,MIC,-,>100 µg/mL
c1cc2n(n1)CCN2,culture,Mycobacterium tuberculosis,H37Rv,-,BACTEC,inhibition,12.5 µg/mL,0%
Nc1nnns1,culture,Mycobacterium tuberculosis,H37Rv,-,-,MIC,-,100 µg/mL
CC(=O)c1ccc(N2CCN(c3cncc(-c4csc5ccccc45)n3)CC2)cc1,target,Cytomegalovirus,-,UL97 kinase,-,IC50,-,<10 µM
CC(=O)O[C@H]1C(=O)[C@]2(C)[C@@H](OC(C)=O)C[C@H]3OC[C@@]3(OC(C)=O)[C@H]2[C@H](OC(=O)c2ccccc2)[C@]2(O)C[C@H](OC(=O)[C@H](OC(C)=O)[C@@H](NC(=O)c3ccccc3)c3ccccc3)C(C)=C1C2(C)C,culture,Mycobacterium tuberculosis,RMP-R,-,-,MIC,-,>12.5 µg/mL
CN(C)c1ccc(-c2cncc(N3CCN(c4ccc(F)cc4F)CC3)n2)cc1,target,Cytomegalovirus,-,UL97 kinase,-,inhibition,1 µM,<50%
CCN1CCCC(COC(=O)c2ccc(N)cc2)C1,culture,Mycobacterium tuberculosis,H37Rv,-,-,MIC,-,>100 µg/mL
NC(=O)C(=O)NNC(=O)CCn1[nH]c(=O)c(Cl)c(Cl)c1=O,culture,Mycobacterium tuberculosis,H37Rv,-,BACTEC,MIC bound,-,>12.5 µg/mL
CCN(CC)c1ccc2nc(C)cc(C)c2c1,culture,Mycobacterium tuberculosis,H37Rv,-,-,MIC,-,50 µg/mL
Clc1ccc(-c2cncc(NCc3ccco3)n2)cc1,target,Cytomegalovirus,-,UL97 kinase,-,IC50,-,<1 µM
NNC(=O)CNc1ccc(F)c(Cl)c1,culture,Mycobacterium tuberculosis,H37Rv,-,BACTEC,MIC bound,-,>12.5 µg/mL
Cc1ccc(C(=O)O)cc1-n1c(-c2ccc(Cl)cc2)nnc1-c1ccc(Br)cc1,culture,Mycobacterium tuberculosis,H37Rv,-,-,MIC,-,>100 µg/mL
CCOC(=O)c1nc(C)c(C(=O)OCC)nc1C,culture,Mycobacterium tuberculosis,H37Rv,-,BACTEC,MIC,-,≥12.5 µg/mL
Cc1c(-c2c(C)n(C)n(-c3ccccc3)c2=O)c(=O)n(-c2ccccc2)n1C,culture,Mycobacterium tuberculosis,H37Rv,-,-,MIC,-,>100 µg/mL

The last 3 rows once more:

compound | kind | organism | strain or isolate | protein | method | endpoint | tested at | value
Cc1ccc(C(=O)O)cc1-n1c(-c2ccc(Cl)cc2)nnc1-c1ccc(Br)cc1 | culture | Mycobacterium tuberculosis | H37Rv | - | - | MIC | - | >100 µg/mL
CCOC(=O)c1nc(C)c(C(=O)OCC)nc1C | culture | Mycobacterium tuberculosis | H37Rv | - | BACTEC | MIC | - | ≥12.5 µg/mL
Cc1c(-c2c(C)n(C)n(-c3ccccc3)c2=O)c(=O)n(-c2ccccc2)n1C | culture | Mycobacterium tuberculosis | H37Rv | - | - | MIC | - | >100 µg/mL